What was measured:
[1] = system: TSST-1 production by S. aureus MN8; assay: Inhibition of superantigen production (Western immunoblot); conditions: 8 hours culture; not growth inhibitory
[2] = system: streptococcal pyrogenic exotoxin A (SPE A) production by S. pyogenes; assay: as above; conditions: 8 hours culture; not growth inhibitory
P. aeruginosa = conditions: GML >2000 μg/ml, pH 7.0
[3] = system: exotoxin production of Staphylococcus aureus, Streptococcus pyogenes, Streptococcus agalactiae, groups C, F, and G streptococci, and Clostridium perfringens; assay: Inhibition of exotoxin production in gram-positive bacteria; conditions: all gram-positive organisms tested

Molecule	development of resistance (growth on 100 μg/mL GML plates) (S. aureus strain MN8; weekly passage on 50 μg/mL GML for one year)	mutants with upregulated GEH production (S. aureus strain MN8; year of passage, data not shown)	concentration inhibiting production of TSST-1 [1]	concentration inhibiting production of SPE A [2]	production of virulence factors (P. aeruginosa)	exotoxin production [3]
Glycerol monolaurate	did not develop resistance	no mutants that had upregulated GEH production	0.2 µg/mL	0.025 µg/mL	up-regulated production of numerous virulence factors including pigments	inhibited exotoxin production independently from inhibition of growth
CCCCCCCCCCCC(=O)O			2.5 µg/mL	2.5 µg/mL		

From patent publication US12194140B2, “Compositions for topical treatment of microbial infections” (Hennepin Life Sciences, priority 2012, dated 2025)
